From patent US20220322671A1, “METHODS TO REDUCE CONTAMINATION, BIOFILM AND FOULING FROM WATER SYSTEMS, SURFACES, AND PRODUCTS” (Aequor, Inc., priority 2019, published 2022) come the findings set out here.

The test system of assay [1] is E. coli ATCC 11775. The assay is described as follows: MIC broth microdilution, E. coli. In kind it is cell-based.
Assay [2] relates to P. aeruginosa NR-31041. In words: MIC broth microdilution, P. aeruginosa. Type of assay: cell-based, Pseudomonas aeruginosa.

As for `CCOP(=O)(OCC)C(F)(F)Br`, the “Minimum Inhibitory Concentration (MIC) M07-09 Method, EC” value in assay [1] is reported as 0.100 % v/v. Also, the “Minimum Inhibitory Concentration (MIC) M07-09 Method, PA” value in assay [2] turned out to be 0.100 % v/v.
Regarding Bis(2,2,2-trifluoroethyl) phosphite, the “Minimum Inhibitory Concentration (MIC) M07-09 Method, EC” value in assay [1] was 0.500 % v/v.
